Results of unrelated studies side by side (data: NIAID ChemDB).

Common to all: growth or infection tests; agent: Influenza A virus; endpoint: EC50

Rows are shuffled and stem from different studies. Two numbers with a dash give a range or band. ECn: concentration that inhibits the pathogen or its effect by n%.

CNc1ncc2ncn([C@@H]3O[C@H](CO)[C@@H](O)[C@H]3F)c2n1 ; strain: Recombinant A/X31 ; read by: virus yield ; cells: CEF ; result: 0.9 µM
CCC(CC)O[C@@H]1C=C(C(=O)O)C[C@H](N)[C@H]1NC(C)=O ; strain: H1N1 A/Beijing/262/95 ; read by: visual reading ; cells: MDCK ; result: 1.3 µM
CC(N)C12CC3CC(CC(C3)C1)C2 ; strain: Influenza A H3N2 isolate 53 ; read by: ELISA ; cells: MDCK ; result: 13.3 µg/mL
Nc1nc(Cl)cc(NCC2(CO)CCCCC2)n1 ; strain: H1N1 A/PR/8/34 ; read by: plaque count ; cells: MDCK ; result: 110 µM
CCC(CC)[C@H](NC(C)=O)[C@@H]1C[C@@H](C(=O)O)C[C@H]1N=C(N)N ; strain: Influenza A/Johannesburg/33/94 (H3N2) ; cells: MDCK ; result: 0.1 µM
COc1ncc2ncn([C@@H]3O[C@H](CO)[C@@H](O)[C@H]3F)c2n1 ; strain: A/Sweden ; read by: plaque count ; cells: MDCK ; result: >100 µM
CC(=O)N[C@H]1[C@H]([C@H](O)[C@H](O)CO)OC(C(=O)O)=C[C@@H]1N=C(N)N ; strain: H1N1 A/Bayern/07/95 ; cells: MDCK ; result: 3.4 µM
CCC(CC)O[C@@H]1C=C(C(=O)O)C[C@H](N)[C@H]1NC(C)=O ; strain: H1N1 isolate C1D ; read by: plaque count ; cells: MDCK ; result: ≤0.01 µg/mL
CCC ; strain: USSR/90/77 (H1) ; cells: MDCK ; result: >50 µM
CCCOc1nc2c(nc(N)n2[C@@H]2O[C@H](CO)[C@@H](O)[C@H]2F)c(=O)[nH]1 ; strain: Recombinant A/X31 ; read by: virus yield ; cells: CEF ; result: 1.3 µM
Nc1cc(Cl)nc(N)n1 ; strain: H1N1 A/PR/8/34 ; read by: plaque count ; cells: MDCK ; result: >690 µM
Nc1ncnc2c1ncn2[C@@H]1O[C@H](CO)[C@@H](O)[C@H]1F ; strain: Recombinant A/X31 ; read by: virus yield ; cells: CEF ; result: 1.8 µM
N#Cc1cnc(N)nc1NCC1(CO)CC(CCc2ccccc2)C1 ; strain: H1N1 A/PR/8/34 ; read by: plaque count ; cells: MDCK ; result: 1.7–2.4 µM
CCOc1nc2c(nc(N)n2[C@@H]2O[C@H](CO)[C@@H](O)[C@H]2F)c(=O)[nH]1 ; strain: Recombinant A/X31 ; read by: virus yield ; cells: CEF ; result: 2.9 µM
Nc1nc(Cl)cc(NCC2(CO)CCC2)n1 ; strain: H1N1 A/PR/8/34 ; read by: plaque count ; cells: MDCK ; result: 82–140 µM
CCCC(CCC)C(NC(C)=O)C1CC(C(=O)O)CC1N=C(N)N ; strain: H1N1 A/Bayern/07/95 ; cells: MDCK ; result: 0.72 µM
Nc1nc(NCC2(CO)CCC2)cc(=O)[nH]1 ; strain: H1N1 A/PR/8/34 ; read by: plaque count ; cells: MDCK ; result: >130 µM
Nc1nc2c(ncn2[C@@H]2O[C@H](CO)[C@@H](O)[C@H]2F)c(=O)[nH]1 ; strain: A/NWS/33/H1N1 ; read by: plaque count ; cells: MDCK ; result: 20 µM
Nc1nc(Cl)cc(NCCCO)n1 ; strain: H1N1 A/PR/8/34 ; read by: plaque count ; cells: MDCK ; result: >490 µM
N#CNc1nncs1 ; strain: A/X-15 ; read by: plaque count ; cells: MDCK ; result: 1.19 µg/mL